Laboratory results as given in PMC3842668, “Dual-acting stapled peptides target both HIV-1 entry and assembly” (Retrovirology, 2013).
Where a SMILES comes first, the peptide text is derived from it. Bridges are numbered along the chain shown (N, C = ends). [ ]: non-standard residue; d: D form. R8 = C=CCCCCCC[C@@](C)(N)C(=O)O; S5 = C=CCCC[C@](C)(N)C(=O)O

Test system: HIV-1 IIIB
Assay: Multi-cycle infection assay, inhibition of p24 production
Format: cell-based
Settings: SI = CC50/IC50, MT-2 cells

| Molecule | SI |
| --- | --- |
| ISF-R8-ELLNYY-S5-ESGS-amide (sidechain bridge or staple) [NYAD-57, i,i + 7 hydrocarbon-stapled peptide derived from CAI] | 4.5 |
| Ac-SK-R8-ELLDYY-S5-ESGS-amide (sidechain bridge or staple) [NYAD-64, i,i + 7 hydrocarbon-stapled peptide derived from CAI] | >1.0 |
| Ac-ISF-R8-QLLDYY-S5-QSGSK-amide (sidechain bridge or staple) [NYAD-46, i,i + 7 hydrocarbon-stapled peptide derived from CAI] | 1.9 |
| CC[C@H](C)[C@H](NC(C)=O)C(=O)N[C@@H](CO)C(=O)N[C@@H](Cc1ccccc1)C(=O)N[C@]1(C)CCCCCCC=CCCC[C@@](C)(C(=O)N[C@@H](CCC(=O)O)C(=O)N[C@@H](CO)C(=O)NCC(=O)N[C@@H](CO)C(N)=O)NC(=O)[C@H](Cc2ccc(O)cc2)NC(=O)[C@H](Cc2ccc(O)cc2)NC(=O)[C@H](CC(=O)O)NC(=O)[C@H](CC(C)C)NC(=O)[C@H](CC(C)C)NC(=O)[C@H](CCC(=O)O)NC1=O [NYAD-36] (Ac-ISF[R8]ELLDYY[S5]ESGS-NH2; staple 4-11) | >126 |
| Ac-ISFDELLDYYGESGS [NYAD-41, linear control based on NYAD-36] | >1.0 |
| Ac-ISF-R8-ELLDYY-S5-EKSGSKD-amide (sidechain bridge or staple) [NYAD-55, i,i + 7 hydrocarbon-stapled peptide derived from CAI] | >1.0 |
| Ac-ISF-R8-ELLDYY-S5-ESGSKKK-amide (sidechain bridge or staple) [NYAD-44, i,i + 7 hydrocarbon-stapled peptide derived from CAI] | 1.5 |
| Ac-IRQGPKEPFRDYVDR-NH2 [NYAD-401, reference compound] | >1.0 |
| IRF-R8-QLLNYY-S5-ESGS-amide (sidechain bridge or staple) [NYAD-58, i,i + 7 hydrocarbon-stapled peptide derived from CAI] | 2.1 |
| Ac-ISF-R8-EWLQYY-S5-R-amide (sidechain bridge or staple) [NYAD-33, i,i + 7 hydrocarbon-stapled peptide derived from CAI] | 2.7 |
| CC[C@H](C)[C@H](NC(C)=O)C(=O)N[C@@H](CO)C(=O)N[C@@H](Cc1ccccc1)C(=O)N[C@]1(C)CCCCCCC=CCCC[C@@](C)(C(=O)N[C@@H](CCC(=O)O)C(=O)N[C@@H](CC(=O)O)C(=O)N[C@@H](CCC(=O)O)C(N)=O)NC(=O)[C@H](Cc2ccc(O)cc2)NC(=O)[C@H](C)NC(=O)[C@H](CCC(N)=O)NC(=O)[C@H](CC(C)C)NC(=O)[C@H](Cc2c[nH]c3ccccc23)NC(=O)[C@H](CCC(=O)O)NC1=O [NYAD-67] (Ac-ISF[R8]EWLQAY[S5]EDE-NH2; staple 4-11) | >27.7 |
| Ac-ISF-R8-ELLRYY-S5-R-amide (sidechain bridge or staple) [NYAD-56, i,i + 7 hydrocarbon-stapled peptide derived from CAI] | 3.4 |
| Ac-RSF-R8-RLLDYY-S5-ESGS-amide (sidechain bridge or staple) [NYAD-61, i,i + 7 hydrocarbon-stapled peptide derived from CAI] | 3.1 |
| Ac-RSFE-R8-LLDYYG-S5-SGS-amide (sidechain bridge or staple) [NYAD-65, i,i + 7 hydrocarbon-stapled peptide derived from CAI] | >1.0 |
| CC[C@H](C)[C@H](NC(C)=O)C(=O)N[C@@H](CO)C(=O)N[C@@H](Cc1ccccc1)C(=O)N[C@]1(C)CCCCCCC=CCCC[C@@](C)(C(=O)N[C@@H](CCC(=O)O)C(=O)N[C@@H](CC(=O)O)C(N)=O)NC(=O)[C@H](Cc2ccc(O)cc2)NC(=O)[C@H](Cc2ccc(O)cc2)NC(=O)[C@H](CC(=O)O)NC(=O)[C@H](CC(C)C)NC(=O)[C@H](CC(C)C)NC(=O)[C@H](CCC(=O)O)NC1=O [NYAD-66] (Ac-ISF[R8]ELLDYY[S5]ED-NH2; staple 4-11) | >29.1 |
| Ac-ISF-R8-ELEDYY-S5-ESGS (sidechain bridge or staple) [NYAD-43, i,i + 7 hydrocarbon-stapled peptide derived from CAI] | >2.0 |
| Ac-RRF-R8-ELLDYY-S5-ESGS-amide (sidechain bridge or staple) [NYAD-62, i,i + 7 hydrocarbon-stapled peptide derived from CAI] | 1.9 |
| Ac-R-R8-FAELLD-S5-YGESGS-amide (sidechain bridge or staple) [NYAD-63, i,i + 7 hydrocarbon-stapled peptide derived from CAI] | >2.0 |
